Reference: patent US5362412A, “Biodegradable bleach stabilizers for detergents” (priority 1991, dated 1994)

Tested on: microorganisms of sludge
Experiment: Biodegradability, Sturm CO2 Evolution Test
Details: acclimated microorganisms; typically 26-30 days

Compound	% of Theoret. CO2 [%]
O=C(O)CC(C(=O)O)N(CC(=O)O)CC(=O)O (stereo not drawn) [AspDA, Aspartic acidN,N-diacetic acid]	84

Same assay, conditions: unacclimated sludge; typically 26-30 days

Compound	% of Theoret. CO2 [%]
O=C(O)CNC(CC(=O)O)C(=O)O (stereo not drawn) [AspMA, Aspartic acidN-monoacetic acid]	78
O=C(O)CCN(CC(=O)O)CC(=O)O [BADA]	73
O=C(O)CSC(CC(=O)O)C(=O)O (stereo not drawn) [CMMS, Carboxymethylmercaptosuccinic acid]	85
O=C(O)CC(NC(CC(=O)O)C(=O)O)C(=O)O (stereo not drawn) [ISA, Iminodisuccinic acid]	76
O=C(O)CN(CC(=O)O)CC(=O)O [NTA, Nitrilotriacetic acid, reference compound]	73
